Laboratory results published in paper PMC6438201.

Legend:
[1] = target: melittin (Apis mellifera) (UniProt P01501)
[2] = target: melittin (Apis mellifera) (UniProt P01501); conditions: cited from earlier work

calmodulin (from UniProt P0DP23)
Kd [1]: 4.6 nM
Kd [2]: 3 nM

Where two headings read alike, the source gives them in different places.
